Data set [1] relates to T1, NapM (Mycobacterium tuberculosis H37Ra).
T1 sequence (looked up, limits assumed): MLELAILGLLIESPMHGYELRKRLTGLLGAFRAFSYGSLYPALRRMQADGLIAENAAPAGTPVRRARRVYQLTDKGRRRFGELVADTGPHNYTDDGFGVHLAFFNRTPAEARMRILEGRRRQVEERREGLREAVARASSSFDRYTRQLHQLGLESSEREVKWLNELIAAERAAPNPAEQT
Kind of data set: EMSA. Particulars: 1 uM probe, pH and temperature not stated, recombinant protein, label: FITC (5' end), probe letters rebuilt from the primers and the genome. For orientation: In EMSA bound probe runs differently from free probe, usually more slowly.

The test system of the next data set is DnaA + NapM. Kind of data set: EMSA. Particulars: pH and temperature not stated, recombinant protein, label: FITC (5' end), probe letters rebuilt from the primers and the genome.

For at least one entry, the source does not settle the construct or the ends of the probe. For some assays here: Where a protein sequence is shown, tags need not be part of it.

Experimental findings from publication PMC6377630, “NapM enhances the survival of Mycobacterium tuberculosis under stress and in macrophages” (Communications Biology, 2019) are described below.

As for “GTGTCGTGAGCTCACCGATCTTTCGTTGCCCAAAATCGGCCAAGCGTTCGGCCGTGATCACACAACCGTCATGTACGCCCAACGCAAGATCCTGTCCGAGATGGCCGAGCGCCGTGAGGTCTTTGATCACGTCAAAGAACTCACCACTCGCATCCGTCAGCGCTCCAAGCGCTAGCACGGCGTGTTCTTCCGACAACGTTCTTAAAAAAACTTCTCTCTCCCAGGTCACACCAGTCACAGAGATTGGCTGTGAGTGTCGCTGTGCACAAACCGCGCACAGACTCATACAGTCCCGGCGGTTCCGTTCACAACCCACGCCTCATCCCCACCGACCCAACACACACCCCACAGTCATCGCCACCGTCATCCACAACTCCGACCGACGTCGACCTGCACCAAGACCAGACTGTCCCCAAACTGCACACCCTCTAATACTGTTACCGAGATTTCTTCGTCGTTTGTTCTTGGAAAGACAGCGCTGGGGATCGTTCGCTGGATACCACCCGCATAACTGGCTCGTCGCGGTGGGTCAGAGGTCAATGATGAACTTTCAAGTTGACGTGAGAAGCTCTACGGTTGTTGTTCGACTGCTGTTGCGGCCGTCGTGGCGGGTCACGCGTCATGGGCATTCGTCGTTGGCAGTCCCCACGCTAGCGGGGCGCTAGCCACGGGATCGAACTCATCGTGAGGTGAAAGGGCGCAATGGACGCGGCTACGACAAGAGTTGGCCTCACCGACTTGACGTTTCGTTTGCTACGAGAGTCTTTCGCCGATGCGGTGTCGTGGGTGGCTAAAAATCTGCCAGCCAGGCC (double strand) [oriC fragment]”, the Kd in data set [1] worked out at 458 nM. Besides, the binding result in the data set with DnaA + NapM was “binds”.

As usually defined, the Kd is the free concentration of one partner at which half of the binding sites on the other are occupied at equilibrium, for simple one-to-one binding.
